Values from PubChem BioAssay AID624099 (ICCB-Longwood, 2012)
Shown is a random part of about 21,000 deposited reagents. 497 of all reagents (2.4%) were called active. 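Higher z means weaker E2 silencing; only reporter increases were scored, and knock-downs that hurt cell survival may mask genuine repressor factors.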 Entries without a mark were called inactive.

Screen: 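Human genes that papillomavirus E2 requires to repress the HPV18 LCR promoter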 (primary screen)
Cells: human C33A cervical carcinoma cells (HPV-negative) stably expressing BPV1 E2 and an HPV18 LCR luciferase reporter
Reagents: siRNA pool against human genes, 40 nM
Time to read-out: 72 h
Measured: 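Per-well luciferase luminescence, z-scored on each plate against the plate mean and SD with control wells left out, then averaged across three replicate plates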
Reading the numbers: mean z-score and z-score: higher = stronger reporter signal, weaker E2 silencing
Active means: 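Hit if mean z-score reaches 2 and two or more of three replicate z-scores also reach 2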

LIG1
- mean z-score: -1.31
- z-score, replicate A: -1.29
- z-score, replicate B: -1.29
- z-score, replicate C: -1.37

YTHDF1
- mean z-score: -1.39
- z-score, replicate A: -1.28
- z-score, replicate B: -1.36
- z-score, replicate C: -1.54

RGS3
- mean z-score: 0.21
- z-score, replicate A: 0.03
- z-score, replicate B: 0.16
- z-score, replicate C: 0.43

PRELID2
- mean z-score: -0.74
- z-score, replicate A: -0.18
- z-score, replicate B: -1.12
- z-score, replicate C: -0.92

TEC
- mean z-score: 0.01
- z-score, replicate A: -0.1
- z-score, replicate B: -0.29
- z-score, replicate C: 0.44

IFNE
- mean z-score: -1.14
- z-score, replicate A: -1.14
- z-score, replicate B: -1.08
- z-score, replicate C: -1.2

KRT37
- mean z-score: -1.74
- z-score, replicate A: -1.82
- z-score, replicate B: -1.71
- z-score, replicate C: -1.7

MIGA1
- mean z-score: 1.23
- z-score, replicate A: 1.16
- z-score, replicate B: 1.3
- z-score, replicate C: 1.22

HTRA3
- mean z-score: -0.32
- z-score, replicate A: -0.13
- z-score, replicate B: -0.23
- z-score, replicate C: -0.59

FYRD1
- mean z-score: 0.07
- z-score, replicate A: -0.23
- z-score, replicate B: 0.14
- z-score, replicate C: 0.29

Part of the list above in another layout.
target	mean z-score	z-score, replicate A	z-score, replicate B	z-score, replicate C
PRELID2	-0.74	-0.18	-1.12	-0.92
TEC	0.01	-0.1	-0.29	0.44
IFNE	-1.14	-1.14	-1.08	-1.2

The listing continues:
INTS3
- mean z-score: -0.02
- z-score, replicate A: -0.18
- z-score, replicate B: 0.12
- z-score, replicate C: 0

PYCR2
- mean z-score: 3.08 (active)
- z-score, replicate A: 3.42
- z-score, replicate B: 2.39
- z-score, replicate C: 3.42

IGLON5
- mean z-score: 0.3
- z-score, replicate A: 0.28
- z-score, replicate B: 0.28
- z-score, replicate C: 0.33

KLK5
- mean z-score: 0.01
- z-score, replicate A: 0.2
- z-score, replicate B: -0.15
- z-score, replicate C: -0.01

ITFG2
- mean z-score: 1.56
- z-score, replicate A: 1.72
- z-score, replicate B: 1.48
- z-score, replicate C: 1.48

TIRAP
- mean z-score: -2.03
- z-score, replicate A: -1.79
- z-score, replicate B: -2.23
- z-score, replicate C: -2.08

SLC7A3
- mean z-score: 1.61
- z-score, replicate A: 1.48
- z-score, replicate B: 1.6
- z-score, replicate C: 1.76

DRP2
- mean z-score: -0.01
- z-score, replicate A: -0.45
- z-score, replicate B: 0.27
- z-score, replicate C: 0.16

NDUFB1
- mean z-score: -2.61
- z-score, replicate A: -2.81
- z-score, replicate B: -2.73
- z-score, replicate C: -2.29

CACNA2D4
- mean z-score: -0.8
- z-score, replicate A: -0.99
- z-score, replicate B: -0.84
- z-score, replicate C: -0.58

ARSG
- mean z-score: 0.44
- z-score, replicate A: 0.79
- z-score, replicate B: 0.51
- z-score, replicate C: 0.01
